Compound potency records, mixed from different reports. Data source: NIAID ChemDB in PubChem.

Shared fields: tests in culture; organism: Mycobacterium tuberculosis

For "inactive" no cut-off is given.

SMILES	strain	mutations	method	endpoint	tested at	setting	result
C[C@]1(COc2ccc(N3CCC(Oc4ccc(OC(F)(F)F)cc4)CC3)cc2)Cn2cc([N+](=O)[O-])nc2O1	CDC1551	-	-	MIC	-	-	0.2 µg/mL
O=C(Cl)N1CCN(c2ccccc2)C1=O	H37Rv	-	BACTEC	MIC bound	-	-	>12.5 µg/mL
CCOC(=O)C1CCC(C(=O)OCC)N1C(=O)COc1cc2c(O)c3c(O)c(C)c4c(c13)C(=O)[C@@](C)(O/C=C/[C@H](OC)[C@@H](C)[C@@H](OC(C)=O)[C@H](C)[C@H](O)[C@H](C)[C@@H](O)[C@@H](C)/C=C/C=C(/C)C(=O)N2)O4	H37Rv	-	-	MIC	-	-	0.37 µg/mL
CCCC(=O)OCc1cc(=O)n(C)c2c3c4c(cc12)c(C)cc(=O)n4CO3	RMP-R	-	-	MIC	-	-	<0.1 µg/mL
COc1cc(OC)nc(NC(=O)NS(=O)(=O)c2ncccc2C(=O)N(C)C)n1	P4145	-	-	MIC	-	-	62 µM
Nc1cc(O)c(C(=O)O)cc1F	H37Rv	Isoniazid-resistant	resazurin	MIC90	-	-	2.5 µg/mL
CO[C@H]1/C=C/O[C@@]2(C)Oc3c(C)c(O)c4c(=O)c(c5oc6cc(N7CCN(CC(C)C)CC7)cc(=O)c6nc5c4c3=C2O)NC(=O)/C(C)=C\C=C\[C@H](C)[C@H](O)[C@@H](C)[C@@H](O)[C@@H](C)[C@H](OC(C)=O)[C@@H]1C	33 (rifampicin-resistant)	-	-	MIC	-	-	0.125 µg/mL
COc1cccc(C2SCC(=O)N2C(=O)NCCCN2c3ccccc3Sc3ccccc32)c1	H37Rv	-	agar	inhibition	25 µg/mL	-	32%
CN(C)C/C=C(/c1ccc(Br)cc1)c1ccc(-c2ccc(Br)cc2)cc1	ALI 536	-	-	MIC	-	-	≤4 µg/mL
CCCN(CCC)N(CC)C(=O)COc1cc2c(O)c3c(O)c(C)c4c(c13)C(=O)[C@@](C)(O/C=C/[C@H](OC)[C@@H](C)[C@@H](OC(C)=O)[C@H](C)[C@H](O)[C@H](C)[C@@H](O)[C@@H](C)/C=C/C=C(/C)C(=O)N2)O4	H37Rv	-	-	MIC	-	-	0.18 µg/mL
Cc1c(F)c(N2CCNC(C)C2)cc2c1c(=O)c(C(=O)O)cn2C1CC1	45 strains (drug-susceptible)	-	-	MIC90	-	-	1 µg/mL
C=C1[C@@H](C)[C@H]2[C@H](Cc3ccccc3)NC(=O)[C@]23[C@H](OC(C)=O)/C=C/[C@](C)(O)C[C@@H](C)C/C=C/[C@H]3[C@@H]1O	H37Rv	-	BACTEC	MIC	-	-	≥12.5 µg/mL
O=C(/N=C/c1ccccc1[N+](=O)[O-])NCCCN1c2ccccc2Sc2ccccc21	H37Rv	-	agar	inhibition	25 µg/mL	-	38%
COc1ccc(NC2=CC(C)(C(=O)O)OC2=O)cc1	H37Rv	-	BACTEC	inhibition	12.5 µg/mL	-	0%
CN[C@@H]1[C@H](O[C@H]2[C@H](O[C@H]3[C@H](O)[C@@H](O)[C@H](N=C(N)N)[C@@H](O)[C@@H]3N=C(N)N)O[C@@H](C)[C@]2(O)C=O)O[C@@H](CO)[C@H](O)[C@H]1O	8666/2010	-	-	MIC	-	-	>27.5 µM
C=C1C(O)[C@@]2(C(=O)N1OC)/C(=C/CC)C=CC(=O)[C@H]2O	H37Rv	-	BACTEC	inhibition	12.5 µg/mL	-	0%
c1ccc(Sc2nnc(N3CCN(c4nc(N5CCN(c6ccccc6)CC5)c5ccccc5n4)CC3)o2)cc1	H37Rv	-	agar / visual reading	inhibition	50 µg/mL	-	91%
O=C1CCC(N2C(=O)C3C4CCC(O4)C3C2=O)C(=O)O1	H37Rv	-	BACTEC	inhibition	12.5 µg/mL	-	17%
O=C(/N=C/c1cccc([N+](=O)[O-])c1)NCCCN1c2ccccc2Sc2ccccc21	H37Rv	-	agar	inhibition	50 µg/mL	-	68%
O=C(NNc1cccc([N+](=O)[O-])c1)N1CCN(c2nc(N3CCN(c4ccccc4)CC3)c3ccccc3n2)CC1	H37Rv	-	agar / visual reading	inhibition	50 µg/mL	-	92%
O=[N+]([O-])/C=C/c1cn(CCCCCCCCn2cc(/C=C/[N+](=O)[O-])c3ccccc32)c2ccccc12	H37Rv	-	BACTEC	inhibition	6.25 µg/mL	-	0%
O=C(/N=C/c1ccccc1Br)NCCCN1c2ccccc2Sc2ccccc21	H37Rv	-	agar	inhibition	50 µg/mL	-	52%
C[C@H]1CC[C@@H]2N(C1)C[C@@H]1[C@](O)([C@@H](O)C[C@@]3(O)[C@@H]4CC[C@@H]5[C@]6(O)O[C@@]4(C[C@@]13O)[C@@]5(C)CC[C@H]6O)[C@]2(C)O	H37Rv	-	BACTEC	MIC bound	-	-	>12.5 µg/mL
COc1ccccc1NNC(=O)N1CCN(c2nc(N3CCN(c4ccccc4)CC3)c3ccccc3n2)CC1	H37Rv	-	BACTEC / fluorescence	MIC	-	-	>6.25 µg/mL
C[C@@H]1CN(C(=O)CCOS(C)(=O)=O)[C@@H](C)CN1C(=O)CCOS(C)(=O)=O	H37Rv	-	BACTEC	MIC bound	-	-	>12.5 µg/mL
Cc1cc(C)c2oc3ccccc3c(=O)c2c1[N+](=O)[O-]	H37Rv	-	-	inhibition	2 µg/mL	-	inactive
Cc1c(OCC(F)(F)F)ccnc1CSc1nc2ccccc2[nH]1	H37Rv	-	turbidity	MIC90	-	14 d	1.34 µM
C=CC/C(=N\OS(=O)(=O)O)S[C@@H]1O[C@H](CO)[C@@H](O)[C@H](O)[C@H]1O	H37Rv	-	BACTEC	MIC bound	-	-	>12.5 µg/mL
COc1nc(C)nc(NC(=O)NS(=O)(=O)c2ccccc2OCCCl)n1	ATCC35801	-	-	MIC	-	-	125 µM
O=[N+]([O-])c1cn2c(n1)OC[C@@H](OCc1ccc(OC(F)(F)F)cc1)C2	UT18	-	-	MIC	-	-	0.024 µg/mL
COC(=O)c1ccc2c(=O)c3ccccc3oc2c1	H37Rv	-	-	inhibition	4 µg/mL	-	inactive
Cc1ccc(NC(Nc2ccc(C)c(Cl)c2)C(Cl)(Cl)Cl)cc1Cl	H37Rv	-	BACTEC	inhibition	12.5 µg/mL	-	26%
CC[C@H]1OC(=O)[C@H](C)[C@@H](O[C@H]2C[C@@](C)(OC)[C@@H](OC(C)=O)[C@H](C)O2)[C@H](C)[C@@H](O[C@@H]2O[C@H](C)C[C@H](N(C)C)[C@H]2O)C(C)(O)C[C@@H](C)/C(=N\OCCCC2CCCCC2)[C@H](C)[C@@H](O)[C@]1(C)O	1 (rifimpin isoniazid-susceptible)	-	-	MIC	-	-	3.13 µg/mL
O=C1C(C2CCCCC2)=C2OCC3COC2(O3)c2ccccc21	H37Rv	-	BACTEC	MIC bound	-	-	>12.5 µg/mL
CC1(C)S[C@@H]2[C@H](NC(=O)[C@H](N)c3ccccc3)C(=O)N2[C@H]1C(=O)O	IGR	-	-	MIC	-	-	>92 µM
COC(=O)Nc1nc2ccc(CCC(=O)c3c(C)oc(C)c3-c3ccc(NC(C)=O)cc3)cc2[nH]1	H37Rv	-	BACTEC	MIC bound	-	-	>12.5 µg/mL
ClCCCN1c2ccccc2Sc2ccccc21	H37Rv	-	agar	inhibition	50 µg/mL	-	20%
COc1ccccc1Sc1nnc(N2CCN(c3nc(N4CCN(c5ccccc5)CC4)c4ccccc4n3)CC2)o1	H37Rv	-	BACTEC / fluorescence	MIC	-	-	>6.25 µg/mL
COc1cc2oc3c(c(=O)c2c(O)c1/C=C/C(C)C)C(C=C(C)C)Oc1cc(O)ccc1-3	INH-r	-	-	MIC	-	-	>12.5 µg/mL
CO[C@H]1/C=C/O[C@@]2(C)Oc3c(C)c(O)c4c(O)c(cc(OCC(=O)N(C)CCC#N)c4c3C2=O)NC(=O)/C(C)=C\C=C\[C@H](C)[C@H](O)[C@@H](C)[C@@H](O)[C@@H](C)[C@H](OC(C)=O)[C@@H]1C	H37Rv	-	-	MIC	-	-	0.09 µg/mL
O=C(O)c1ccc(Sc2nnc(N3CCN(c4nc(N5CCN(c6ccccc6)CC5)c5ccccc5n4)CC3)o2)cc1	H37Rv	-	BACTEC / fluorescence	MIC	-	-	>6.25 µg/mL
Cc1ccc(Cn2nnc(-c3cc([N+](=O)[O-])cc([N+](=O)[O-])c3)n2)cc1	9449/2007	-	-	MIC	-	14 d	0.125 µM
O=P1(c2ccccc2)Nc2ccccc2N1c1ccccc1	H37Rv	-	resazurin	inhibition	6.25 µg/mL	-	75%
Cc1c([N+](=O)[O-])cc2c(=O)c3ccccc3oc2c1C	H37Rv	-	-	inhibition	8 µg/mL	-	inactive
O=C(N/N=C/c1cccc(C(F)(F)F)c1)c1ccncc1	Ethambutol-resistant	-	-	MIC	-	-	0.1 µg/mL
Cn1c(CBr)nc2c1C(=O)c1nc(CBr)[nH]c(=O)c1C2=O	H37Rv	-	BACTEC	MIC bound	-	-	>12.5 µg/mL
COC(=O)c1cccc2oc3ccccc3c(=O)c12	H37Rv	-	-	inhibition	32 µg/mL	-	inactive
CN[C@@H]1[C@@H](O)[C@@H](O[C@@H]2[C@@H](O)[C@H](O[C@H]3O[C@H](CN)CC[C@H]3N)[C@@H](N)C[C@H]2N)OC[C@]1(C)O	8666/2010	-	-	MIC	-	-	2.09 µM
O=c1[nH]cnc2ncnn12	H37Rv	-	resazurin	inhibition	6.25 µg/mL	-	-3%
O=C(NNCc1cccc(C(F)(F)F)c1)c1ccncc1	H37Rv (ethambutol-resistant)	-	-	MIC	-	-	1.95 µg/mL
CN(C)C/C=C(/c1ccccc1)c1ccc(-c2ccc(Br)cc2)cc1	ALI 3082	-	-	MIC	-	-	40 µg/mL
O=C(c1ccc([N+](=O)[O-])o1)N1CCc2cc(N3CCN(Cc4ccccc4)CC3)ccc2C1	UT18	-	-	MIC	-	-	0.006 µg/mL
COC(=O)c1ccccc1S(=O)(=O)NC(=O)Nc1nc(C)cc(C)n1	P4145	-	-	MIC	-	-	12 µM
CN(C)CC=C(c1ccc(Br)cc1)c1ccc(-c2ccc(Br)cc2)cc1	ALI 258	-	-	MIC	-	-	≤4 µg/mL
O=C(OCC1OC2OC(c3ccccc3)(n3ccc4c([N+](=O)[O-])ccnc43)OC2C1OC(=O)c1ccccc1)c1ccccc1	H37Rv	-	resazurin	inhibition	6.25 µg/mL	-	10%
O=C(NNCc1ccccc1F)c1ccncc1	Erdman	-	-	MIC	-	-	0.78 µg/mL
O=C(/N=C/c1cccc(O)c1)NCCCN1c2ccccc2Sc2ccccc21	H37Rv	-	agar	inhibition	50 µg/mL	-	52%
C/C(=N\NC(=O)c1ccncc1)c1ccccc1F	H37Rv (isoniazid-resistant)	-	-	MIC	-	-	>31.25 µg/mL
NC(=O)c1cnccn1	H37Rv	-	-	MIC	-	-	25 µg/mL
O=C(NNCc1ccccc1)c1ccncc1	H37Rv (thiacetazone-resistant)	-	-	MIC	-	-	>31.25 µg/mL
COc1ccc(OC)c2c(Cl)cc(NCCCN3CCN(CCCNc4cc(Cl)c5c(OC)ccc(OC)c5n4)CC3)nc12	H37Rv	-	BACTEC	inhibition	12.5 µg/mL	-	19%
C[C@H]1COc2c(N3CCN(C)CC3)c(F)cc3c(=O)c(C(=O)O)cn1c23	82 strains	-	-	MIC50	-	-	0.5 µg/mL
O=C(O)c1ccc2c(=O)c3ccccc3oc2c1C(=O)O	H37Rv	-	-	inhibition	16 µg/mL	-	inactive
CN(C)C/C=C(\c1ccc(Cl)cc1)c1ccc(-c2ccc(Br)cc2)cc1	ALI 258	-	-	MIC	-	-	≤5 µg/mL
O=C(NCCCN1c2ccccc2Sc2ccccc21)N1C(=O)/C(=C\c2ccc(O)cc2)SC1c1ccc(O)cc1	H37Rv	-	agar	inhibition	50 µg/mL	-	76%
COc1ccc(/C=C/C(=N\NC(=O)c2ccccc2)c2sc(Nc3ccc([N+](=O)[O-])cc3)nc2C)cc1OC	H37Rv	-	BACTEC	inhibition	6.25 µg/mL	-	66%
COC(=O)c1cc([N+](=O)[O-])cc2c(=O)c3cc([N+](=O)[O-])ccc3oc12	H37Rv	-	-	inhibition	4 µg/mL	-	inactive
C=C1C(=O)N[C@@H](C)C(=O)N[C@H](CC(C)C)C(=O)N[C@H](C(=O)O)[C@H](C)C(=O)N[C@H](CCCN=C(N)N)C(=O)N[C@@H](/C=C/C(C)=C/[C@H](C)[C@H](Cc2ccccc2)OC)[C@@H](C)C(=O)N[C@@H](C(=O)O)CCC(=O)N1C	-	Isoniazid-resistant	resazurin	MIC	-	-	>53 µM
CN(C)C/C=C(\c1ccc(N)cc1)c1ccc(-c2ccc(Br)cc2)cc1	ALI 536	-	-	MIC	-	-	≤5 µg/mL
NC(=O)c1ccc2oc3ccccc3c(=O)c2c1	H37Rv	-	-	inhibition	4 µg/mL	-	inactive
CCCCCN(C(=O)COc1cc2c(O)c3c(O)c(C)c4c(c13)C(=O)[C@@](C)(O/C=C/[C@H](OC)[C@@H](C)[C@@H](OC(C)=O)[C@H](C)[C@H](O)[C@H](C)[C@@H](O)[C@@H](C)/C=C/C=C(/C)C(=O)N2)O4)N(C)C	H37Rv	-	-	MIC	-	-	0.18 µg/mL
CN(C)C/C=C(\c1ccc(I)cc1)c1ccc(-c2ccc(Br)cc2)cc1	H37Rv	-	-	MIC	-	-	19 µg/mL
C/C(=N\NC(=O)c1ccncc1)c1ccccc1	Isoniazid-resistant	-	-	MIC	-	-	>3.2 µg/mL

Blank or dashed fields: not listed here. MIC bound comes from a single tested concentration. MIC50, MIC90 and the like: level of inhibition, or share of isolates inhibited. Percent inhibition refers to the dose given; in toxicity tests it is the harm to the cells. Rows are shuffled and stem from different studies.